Record: PubChem BioAssay AID624099 (ICCB-Longwood, 2012)
This is a random part of about 21,000 reagents. Of all reagents, 497 (2.4%) are marked active. 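Higher z means weaker E2 silencing; only reporter increases were scored, and knock-downs that hurt cell survival may mask genuine repressor factors.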 Entries without a mark were called inactive. Reagent sequences are not shown.

Test: 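Knock-downs relieving repression by E2 of an HPV18 LCR luciferase reporter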 (primary screen)
Cells: human C33A cervical carcinoma cells (HPV-negative) stably expressing BPV1 E2 and an HPV18 LCR luciferase reporter
Knock-down reagent: siRNA pool against human genes, 40 nM
Time to read-out: 72 h
Measurement: 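Per-well luciferase luminescence, z-scored on each plate against the plate mean and SD with control wells left out, then averaged across three replicate plates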
Direction: mean z-score and z-score: higher = stronger reporter signal, weaker E2 silencing
Hit rule: 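Mean z ≥ 2 together with z ≥ 2 in two or more of the three replicates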

mean z-score,"z-score, replicate A","z-score, replicate B","z-score, replicate C",gene knocked down
-1.14,-1.14,-1.43,-0.85,MGAT2
1.16,1.1,0.95,1.42,LOC401713 (retired record)
0.14,-0.03,0.16,0.3,PLEKHO1
0.1,0.04,0.09,0.18,UBE2K
0.56,0.38,0.82,0.5,H2AZ2
0.57,0.2,0.68,0.82,EIF3FP3
-0.95,-1.17,-0.87,-0.8,PSMA6
0.71,0.75,0.39,1,RMI2
0.61,0.71,0.65,0.46,ZNF781
-0.72,-0.64,-0.8,-0.72,FADS3
0.65,0.41,0.76,0.77,C12orf60
1.42,1.38,1.35,1.55,AACS
0.46,0.73,0.43,0.23,TSHZ1
0.91,1.2,0.84,0.68,PRPF40A
-0.43,-0.22,-0.5,-0.58,TCF25
0.15,0.62,0.01,-0.18,API5
1.04,1.06,1.15,0.92,PRR20A
0.14,0.33,0.21,-0.12,INTS14
0.02,-0.38,0.11,0.33,CREBRF
-0.86,-1.01,-0.8,-0.77,PRR14
-0.39,-0.19,-0.43,-0.55,ECH1
-0.28,-0.03,-0.53,-0.26,TPBG
0.45,0.57,0.47,0.3,SEPHS1P7
0.67,0.96,0.92,0.13,SPTLC3
0.13,0.11,0.3,-0.02,CD83
-0.68,-0.98,-0.59,-0.48,RPF2
-0.37,-0.88,0.09,-0.32,TNNC1
-0.02,0.08,-0.28,0.14,TMEM196
1.94,2.29,1.93,1.59,LINC01138
-0.38,-0.34,-0.56,-0.25,PPBP
0.15,-0.07,0.54,-0.02,ZNF324B
0.12,0.5,0,-0.15,HTR2A
-0.32,-0.3,-0.17,-0.48,NDUFAF4
-0.23,-0.71,0.16,-0.13,MT-ATP6
-0.62,-0.74,-0.45,-0.68,DPH3
-0.29,-0.13,0.08,-0.82,RBFA
-0.81,-0.91,-0.85,-0.67,RBM11

Ordered by “z-score, replicate A” (descending): some entries from above.
mean z-score,"z-score, replicate A","z-score, replicate B","z-score, replicate C",gene knocked down
-0.29,-0.13,0.08,-0.82,RBFA
-0.32,-0.3,-0.17,-0.48,NDUFAF4
-0.23,-0.71,0.16,-0.13,MT-ATP6
-0.62,-0.74,-0.45,-0.68,DPH3

Next results follow.
mean z-score,"z-score, replicate A","z-score, replicate B","z-score, replicate C",gene knocked down
1.91,1.71,1.66,2.35,HM13
-1.67,-1.62,-1.33,-2.05,TKTL2
-0.21,-0.05,-0.29,-0.28,H3P44
-0.54,-0.62,-0.45,-0.55,SOD2
0.04,-0.22,0.37,-0.04,MC4R
0.31,0.46,0.12,0.34,LOC729995 (retired record)
-0.59,-0.65,-0.65,-0.47,GJB5
-0.03,-0.02,-0.26,0.2,CXCL9
0.36,0.37,0.61,0.09,CSAG2
2.71 (active),3.01,2.52,2.6,TEDC2
-0.46,-0.57,-0.66,-0.16,UBE2Q2P1
0.18,-0.3,0.73,0.12,LOC401128 (retired record)
-0.48,-0.02,-0.63,-0.79,ZMPSTE24
0.74,0.51,0.73,0.99,TPR
-0.87,-0.9,-0.76,-0.95,EFNA2
0.01,-0.15,0.31,-0.12,SYT3
0.36,0.13,0.35,0.59,TEX9
-0.07,-0.06,-0.4,0.23,ADCK2
-0.83,-0.8,-0.55,-1.13,ZC3H18
-0.63,-0.99,-0.7,-0.2,LOC389671 (retired record)
